Measured values from several laboratories, pooled; numbers as filed in NIAID ChemDB.

All rows: cytotoxicity tests; cell line: CEM; read-out: CC50

CCn is the concentration with n% toxicity to the cells.

SMILES,read by,result
Cc1cn([C@@H]2O[C@H](CO[Si](C)(C)C(C)(C)C)C3(OS(=O)(=O)C=C3N)[C@H]2O[Si](C)(C)C(C)(C)C)c(=O)n(CC(=O)N[C@H](C(=O)OCc2ccccc2)C(C)C)c1=O,-,≥250 µM
Cc1cc(S(=O)(=O)Nc2nnc3c(C(F)(F)F)cc(Cl)cn23)c(S)cc1Cl,-,138 µM
Cc1cc(SCc2cccc3ccccc23)cc(=O)o1,MTT,16 µM
Cc1cn([C@@H]2O[C@H](CO[Si](C)(C)C(C)(C)C)C3(OS(=O)(=O)C=C3N)[C@H]2O[Si](C)(C)C(C)(C)C)c(=O)n(CCOC(=O)[C@@H](N)C(C)C)c1=O,-,21 µM
C[C@@H](O)C(C)(C)OC(=O)N[C@@H](Cc1ccccc1)[C@H](O)CNC[C@@H](O)[C@H](Cc1ccccc1)NC(=O)OC(C)(C)C,-,>10 µM
Cc1ccnc2c1NC(=O)c1cccnc1N2C1CC1,-,>20 µg/mL
CCOC(=O)CCc1ccccc1O[P@](=O)(N[C@@H](C)C(=O)OC(C)C)OC[C@H]1O[C@@H](n2cnc3c(N)nc(N)nc32)[C@](C)(O)[C@@H]1O,-,>100 µM
CCCCc1cnnn1[C@@H]1O[C@H](CO[Si](C)(C)C(C)(C)C)C2(OS(=O)(=O)C=C2N)[C@H]1O[Si](C)(C)C(C)(C)C,-,>1.5 µM
CC(C)=CCOc1cc(NC(=S)c2ccoc2C)ccc1Cl,-,>100 µg/mL
C[C@H](O)C(C)(C)OC(=O)N[C@@H](Cc1ccccc1)[C@H](O)CNC[C@@H](O)[C@H](Cc1ccccc1)NC(=O)OC(C)(C)C,-,>10 µM
Cc1cn([C@H]2C[C@H](N=[N+]=[N-])[C@@H](CO)O2)c(=O)[nH]c1=O,-,≥100 µM
COP(=O)(O)C[C@H](NP(=O)(O)OC[C@@H]1C=C[C@H](n2cc(C)c(=O)[nH]c2=O)O1)C(=O)O,MTT,266 µM
Cc1cc(S(=O)(=O)Nc2nc(N)nc(N(C)C)n2)c(SCC(=O)O)cc1Cl,-,>200 µM
Cc1cn([C@@H]2O[C@H](CO[Si](C)(C)C(C)(C)C)C3(OS(=O)(=O)C=C3N)[C@H]2O[Si](C)(C)C(C)(C)C)c(=O)n(C)c1=O,-,>20 µg/mL
COCCNC(=O)OC(=O)c1c2c(nc3ccccc13)/C(=C\c1ccc(O)cc1)CCC2,trypan blue,>25 µM
COC(=O)[C@H](C)NP(=O)(OC[C@@H]1C=C[C@H](n2cc(C)c(=O)[nH]c2=O)O1)Oc1ccc(OC)cc1,-,>10 µM
CCOC(=O)[C@H](C)N[P@@](=O)(OC[C@H]1O[C@@H](n2cnc3c(N)nc(N)nc32)[C@](C)(O)[C@@H]1O)Oc1ccccc1CCC(=O)OC(C)C,-,>100 µM
O=c1[nH]cnc2c1ncn2[C@H]1CC[C@@H](CO)O1,-,760 µM
Nc1ncnc2c1ncn2CCOCP(=O)(O)O,-,>100 µg/mL
CN(C)C1C(=O)C(C(=O)NCNC2C(=O)N3C2SC(C)(C)C3C(=O)O)=C(O)C2(O)C(=O)C3=C(O)c4c(O)cccc4C(C)(O)C3CC12,-,>268 µM
Cc1cc(S(=O)(=O)Nc2nc3ccccc3[nH]2)c(S)cc1Cl,-,58.2 µM
Cc1cn([C@H]2C[C@H](N=[N+]=[N-])[C@@H](COC(=O)CNC(=O)c3cnccn3)O2)c(=O)[nH]c1=O,XTT,828 µM
NC(CCSSCCC(N)P(=O)(O)O)P(=O)(O)O,-,>200 µM
O=C(O)c1cn2c3c(c(N4CCN(c5ccccn5)CC4)c(F)cc3c1=O)OCC2CF,-,14 µg/mL
Cc1cn([C@H]2C[C@H](N=[N+]=[N-])[C@@H](CN3C(=O)c4ccc(C(=O)OCC56CC7CC(CC(C7)C5)C6)cc4C3=O)O2)c(=O)[nH]c1=O,-,>160 µM
COc1cc(/C=C2/C(=O)N(C(=O)c3ccccc3O)N=C2C)cc(OC)c1OC,-,0.24 µM
Cc1cn([C@H]2C=C[C@@H](COP(=O)(O)N[C@@H](CC(=O)O)C(=O)O)O2)c(=O)[nH]c1=O,MTT,298 µM
COc1cc(/C=C2/C(=O)N(C(=O)c3ccc(Cl)cc3)N=C2C)cc(OC)c1OC,-,>14 µM
CCOC(=O)CCc1ccccc1OP(=O)(N[C@@H](C)C(=O)OCC)OC[C@H]1O[C@@H](n2cnc3c(N)nc(N)nc32)[C@](C)(O)[C@@H]1O,-,>100 µM
CN(C)C1C(=O)C(C(=O)NCNCCCO)=C(O)C2(O)C(=O)C3=C(O)c4c(O)cccc4C(C)(O)C3CC12,-,>120 µM
Cc1cc(S(=O)(=O)CCc2cccc3ccccc23)c(Br)c(=O)o1,MTT,2.2 µM
O=S(=O)(Nc1nnc2n1-c1ccccc1CC2)c1ccc(Cl)cc1S,-,91.3 µM
Cc1cn([C@H]2C[C@H](N=[N+]=[N-])[C@@H](CN3C(=O)c4cccc([N+](=O)[O-])c4C3=O)O2)c(=O)[nH]c1=O,-,>200 µM
Cc1cc(N[C@@H](C)c2cccc3ccccc23)cc(=O)o1,MTT,182 µM
O=C(NN1C(=O)C(Cl)C1c1cccc(O)c1)c1ccccc1O,-,>15 µM
Cc1cn([C@H]2C[C@H](N=[N+]=[N-])[C@@H](CN3C(=O)c4c(Br)c(Br)c(Br)c(Br)c4C3=O)O2)c(=O)[nH]c1=O,-,56 µM
O=c1[nH]cnc2c1ncn2[C@H]1O[C@@H](CO)C=C1F,-,>100 µM
Cc1cc(N[C@@H](C)c2cccc3ccccc23)c(C(=O)C(Cl)Cl)c(=O)o1,MTT,4.2 µM
Cc1cc(S(=O)(=O)Nc2nc(N)nc(N3CCOCC3)n2)c(SCC(=O)O)cc1Cl,-,>200 µM
COC(=O)[C@H](C)NP(=O)(OC[C@H]1O[C@@H](n2cc(C)c(=O)[nH]c2=O)C[C@@H]1N=[N+]=[N-])Oc1ccc(Br)cc1,-,>10 µM
Nc1ncnc2c1ncn2C1OC(CO)C=C1F,-,>100 µM
Cc1cc(SC2=C(O)CC(CCc3ccc(O)cc3)(C3CCCCC3)OC2=O)c(C(C)(C)C)cc1OS(=O)(=O)N(C)C,-,60 µM
CN(C)[C@@H]1C(=O)C(C(=O)NCNC2(C(=O)[O-])CCCC2)=C(O)[C@@]2(O)C(=O)C3=C(O)c4c(O)cccc4[C@@](C)(O)[C@H]3C[C@@H]12.[Na+],-,>0.6 µM
Cc1cn([C@H]2C[C@H](N=[N+]=[N-])[C@@H](CN3C(=O)c4c(F)c(F)c(F)c(F)c4C3=O)O2)c(=O)[nH]c1=O,-,>200 µM
CC(C)(C)OC(=O)N[C@@H](Cc1ccccc1)[C@H](O)CNC[C@@H](O)[C@H](Cc1ccccc1)NC(=O)OC(C)(C)CN,-,>10 µM
O=c1[nH]c(=O)n([C@H]2C[C@H](O)[C@@H](CO)O2)cc1C12B3B4B5B6B(B3B1B42)B1B5C61,-,>100 µM
CN(C)[C@@H]1C(=O)C(C(=O)NCN2CCCC2)=C(O)[C@@]2(O)C(=O)C3=C(O)c4c(O)cccc4[C@@](C)(O)[C@H]3C[C@@H]12,-,>45.5 µM
CC(C)(C)[Si](C)(C)OC[C@H]1O[C@@H](n2cc(CBr)nn2)[C@H](O[Si](C)(C)C(C)(C)C)C12OS(=O)(=O)C=C2N,-,>1.3 µM
CN/N=C(/c1nc2ccc([N+](=O)[O-])cc2[nH]c1=O)C(O)c1ccc(C(O)/C(=N/NC)c2nc3ccc([N+](=O)[O-])cc3[nH]c2=O)cc1,-,>78 µM
Nc1nc2c(ncn2CCOCP(=O)(O)O)c(=O)[nH]1,-,10 µg/mL
Cc1cn([C@@H]2O[C@H](CO[Si](C)(C)C(C)(C)C)C3(OS(=O)(=O)C=C3N)[C@H]2O[Si](C)(C)C(C)(C)C)c(=O)n(CC(=O)N[C@@H](C)C(=O)OCc2ccccc2)c1=O,-,≥250 µM
CN(C)[C@@H]1C(=O)C(C(=O)NCNC(CO)(CO)CO)=C(O)[C@@]2(O)C(=O)C3=C(O)c4c(O)cccc4[C@@](C)(O)[C@H]3C[C@@H]12.Cl,-,>34.3 µM
Cc1cn([C@H]2C=C[C@@H](COP(=O)(O)N(CC(=O)O)CC(=O)O)O2)c(=O)[nH]c1=O,MTT,298 µM
CCOC(=O)c1cn([C@@H]2O[C@H](CO[Si](C)(C)C(C)(C)C)C3(OS(=O)(=O)C=C3N)[C@H]2O[Si](C)(C)C(C)(C)C)nn1,-,>0.28 µM
CC(=O)Oc1cc(S(=O)(=O)Nc2n[nH]c(N)n2)c(S)cc1Cl,-,>200 µM
O=C(C[C@@H](O)CCc1ccc(O)c(O)c1)O[C@H]1Cc2c(O)cc(O)cc2O[C@@H]1c1ccc(O)c(O)c1,-,>21.1 µM
C[C@]1(CCP(=O)(O)O)CO[C@@H](n2cnc3c(=O)[nH]c(N)nc32)C1,-,>100 µM
CC(C)(C)OC(=O)N[C@@H](Cc1ccccc1)[C@H](O)CNC[C@@H](O)[C@H](Cc1ccccc1)NC(=O)OCCO,-,>10 µM
COCc1cnnn1[C@@H]1O[C@H](CO[Si](C)(C)C(C)(C)C)C2(OS(=O)(=O)C=C2N)[C@H]1O[Si](C)(C)C(C)(C)C,-,>0.9 µM
Cc1ccc(Nc2nc(NS(=O)(=O)c3cc(C)c(Cl)cc3S)n(C)n2)cc1,-,100 µM
C[C@]1(/C=C/P(=O)(O)O)CO[C@@H](n2cnc3c(N)ncnc32)C1,-,>100 µM
Nc1ncnc2c1ncn2C1CC(CO)C1,-,>456 µM
C[C@H](Cn1cnc2c(N)ncnc21)OCP(=O)(O)O,-,103 µM
CCCCc1cn([C@@H]2O[C@H](CO[Si](C)(C)C(C)(C)C)C3(OS(=O)(=O)C=C3N)[C@H]2O[Si](C)(C)C(C)(C)C)nn1,-,>1.5 µM

For reference, 7 entries again:

SMILES	read by	result
CN(C)C1C(=O)C(C(=O)NCNC2C(=O)N3C2SC(C)(C)C3C(=O)O)=C(O)C2(O)C(=O)C3=C(O)c4c(O)cccc4C(C)(O)C3CC12	-	>268 µM
Nc1nc2c(ncn2CCOCP(=O)(O)O)c(=O)[nH]1	-	10 µg/mL
Cc1cc(S(=O)(=O)Nc2nc(N)nc(N3CCOCC3)n2)c(SCC(=O)O)cc1Cl	-	>200 µM
CC(C)(C)OC(=O)N[C@@H](Cc1ccccc1)[C@H](O)CNC[C@@H](O)[C@H](Cc1ccccc1)NC(=O)OCCO	-	>10 µM
COC(=O)[C@H](C)NP(=O)(OC[C@@H]1C=C[C@H](n2cc(C)c(=O)[nH]c2=O)O1)Oc1ccc(OC)cc1	-	>10 µM
Cc1cc(S(=O)(=O)CCc2cccc3ccccc23)c(Br)c(=O)o1	MTT	2.2 µM
Cc1cn([C@H]2C[C@H](N=[N+]=[N-])[C@@H](CN3C(=O)c4cccc([N+](=O)[O-])c4C3=O)O2)c(=O)[nH]c1=O	-	>200 µM

Rows are shuffled and stem from different studies. An empty or dashed field is not shown.